The test system of this test is TB40/E^UL32-EGFP. Briefly: TB40/E^UL32-EGFP virus particle imaging. As to conditions: after 2hpi, compared to no treatment.

The values below come from PMC9907720 (Antiviral research, 2022).

Take heparin [reference compound]: the “TB40/E^UL32-EGFP particles in cells” value is given as “displayed limited the virus particles in the cells”.
